PubChem BioAssay AID1259414, Drosophila RNAi Screening Center | 2018
Test: 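Genome-wide screen for host control of endosymbiont load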 (primary screen). Cell system: Drosophila JW18 cells infected with Wolbachia. Reagents: long dsRNA against Drosophila genes, 0.25 µg dsRNA per well of a 384-well plate. Time to read-out: 5 days. Treatment: cells persistently infected with Wolbachia before knock-down; no added drug. Detection: 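Automated imaging of bacterial rRNA staining divided by host cell count, reported as plate-normalised robust z-score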. Reading the numbers: Wolbachia per cell robust z: higher = more Wolbachia per host cell than the plate typical. Hit rule: 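Active if absolute robust z reaches 1.5 in two or more of three replicates, leaving out multi- or no-target dsRNAs, genes unexpressed in JW18 and A1 wells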.
In all, the deposit lists about 24,000 reagents; below is a random part of those that have a named target and a result. In the full data, about 1,210 (5%) were called active. 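Inactive calls also include excluded dsRNAs with several or no targets, genes unexpressed in JW18, and well A1, regardless of score.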 Entries without a mark were called inactive.

predicted target	DRSC id	Wolbachia per cell robust z, rep 1	Wolbachia per cell robust z, rep 2	Wolbachia per cell robust z, rep 3
Hesr	DRSC19965	-0.874	-2.27	-0.902
CG33012	DRSC06287	0.802	0.395	0.821
CG33012	DRSC06288	1.96	0.186	0.49
CG3407	DRSC00603	-0.783	-0.731	0.382
CG7794	DRSC16313	-0.972	-0.592	-4.45
Acp62F	DRSC08136	-0.707	1.11	-2.05
Srr	DRSC16382	1.26	1.07	1.37
Srr	DRSC27485	0.604	0.546	-0.886
CG1138	DRSC12530	-7.83	-1.29	-1.72

Next part; the last 2 above are carried over.
predicted target	DRSC id	Wolbachia per cell robust z, rep 1	Wolbachia per cell robust z, rep 2	Wolbachia per cell robust z, rep 3
Srr	DRSC27485	0.604	0.546	-0.886
CG1138	DRSC12530	-7.83	-1.29	-1.72
UQCR-11L	DRSC22166	0.561	-0.056	0.0752
UQCR-11L	DRSC41490	0.765	-1.58	-1.37
Parg	DRSC18696	0.441	0.21	0.457
mRpL50	DRSC11015	-3.15	-0.392	0.483
mRpL50	DRSC29216	0.717	1.25	1.05
CG42583	DRSC22937	0.481	0.541	0.422
CG42583	DRSC26327	-0.157	0.968	-0.969
CG31533	DRSC13018	-1.08	-0.321	0.697
CG31533	DRSC41487	-3.56	-2.91	-1.83
Gas8	DRSC22884	-0.256	-1.32	-0.349
Gas8	DRSC29253	-0.582	-0.946	-0.495
eIF4H2	DRSC14582	-0.137	-0.337	0.275
eIF4H2	DRSC27363	0.306	0.491	0.151
MetRS	DRSC22533	-1.34	0.673	-0.214
CG8677	DRSC03107	-5.94	0.835	-0.377
CG8677	DRSC23559	0.369	0.831	2.16
BEAF-32	DRSC05927	-1.13	-0.165	0.177
Moe	DRSC18684	-0.822	0.604	-2.16
Moe	DRSC39153	-1.8 (active)	-4.35	-3.34
